A mixed list of measured activities; the numbers were collected in NIAID ChemDB.

Common to all: whole-cell or culture tests; species: Mycobacterium avium intracellulare; read-out: MIC

Neighbouring rows are from separate reports. An empty or dashed field is not shown.

structure | method | conditions | strain or isolate | value
CCn1cc(C(=O)O)c(=O)c2cc3c(cc21)OCO3 | - | - | - | >250 µg/mL
COc1ccc(C2CC(c3ccc4c(c3)OCO4)=Nc3c(N)nc(SC)nc3N2)cc1 | MTT / broth dilution / absorbance | clinical isolate | MNT1408 | >32 µg/mL
CC[C@H]1OC(=O)[C@H](C)[C@@H](O[C@H]2C[C@@](C)(OC)[C@@H](O)[C@H](C)O2)[C@H](C)[C@@H](O[C@@H]2O[C@H](C)C[C@H](N(C)C)[C@H]2O)[C@](C)(OC)C[C@@H](C)C(=O)[C@H](C)[C@@H](O)[C@]1(C)O | - | - | N-260 | 4 µg/mL
Nc1nc(N)c2c(n1)NC(c1ccc(F)cc1)CC(c1ccc3c(c1)OCO3)=N2 | MTT / broth dilution / absorbance | clinical isolate | MNT1408 | >32 µg/mL
CO[C@H]1/C=C/O[C@@]2(C)Oc3c(C)c(O)c4c(O)c(c(/C=N/N5CCN(C)CC5)c(O)c4c3C2=O)NC(=O)/C(C)=C\C=C\[C@H](C)[C@H](O)[C@@H](C)[C@@H](O)[C@@H](C)[C@H](OC(C)=O)[C@@H]1C | - | - | CIPT 140310019 | 0.05 µg/mL
Nc1nc(N)c2c(n1)NC(c1ccc3c(c1)OCO3)CC(c1ccccc1)=N2 | MTT / broth dilution / absorbance | clinical isolate | MNT1408 | >32 µg/mL
CCn1cc(C(=O)O)c(=O)c2ccc(C)nc21 | - | - | - | >250 µg/mL
COc1cc(O)cc(/C=C/c2cc3ccccc3s2)c1 | broth dilution | - | - | 32 µg/mL
Nc1nc(N)c2c(n1)NC(c1ccc(C(F)(F)F)cc1)CC(c1ccc3c(c1)OCO3)=N2 | MTT / broth dilution / absorbance | clinical isolate | MNT1408 | >32 µg/mL
CC[C@@H](CO)NCCN[C@@H](CC)CO | - | - | ATCC 13950 | 8 µg/mL
Nc1nc(N)c2c(n1)NC(c1ccccc1)CC(c1ccc3c(c1)OCO3)=N2 | MTT / broth dilution / absorbance | clinical isolate | MNT1408 | >32 µg/mL
CCn1cc(C(=O)O)c(=O)c2cc(F)c(N3CCN(C)CC3)cc21 | - | - | - | 10 µg/mL
NCC[C@H](O)C(=O)N[C@@H]1C[C@H](N)[C@@H](O[C@H]2O[C@H](CN)[C@@H](O)[C@H](O)[C@H]2O)[C@H](O)[C@H]1O[C@H]1O[C@H](CO)[C@@H](O)[C@H](N)[C@H]1O | - | - | ATCC 13950 | 8 µg/mL
CCn1cc(C(=O)O)c(=O)c2cc(F)c(N3CCNCC3)nc21 | - | - | - | 27.7 µg/mL
Nc1nc(N)c2c(n1)NC(c1ccc(Cl)cc1)CC(c1ccc3c(c1)OCO3)=N2 | MTT / broth dilution / absorbance | clinical isolate | MNT1408 | >32 µg/mL
CCn1nc(C(=O)O)c(=O)c2cc3c(cc21)OCO3 | - | - | - | >250 µg/mL
CN1CCN(c2cc3c(cc2F)c(=O)c(C(=O)O)cn3-c2ccc(F)cc2)CC1 | - | - | ATCC 13950 | 8 µg/mL
CCn1cc(C(=O)O)c(=O)c2cnc(N3CCCC3)nc21 | - | - | - | 330.9 µg/mL
NC[C@H]1O[C@H](O[C@H]2[C@H](O)[C@@H](O[C@H]3O[C@H](CO)[C@@H](O)[C@H](N)[C@H]3O)[C@H](N)C[C@@H]2N)[C@H](O)[C@@H](O)[C@@H]1O | - | - | N-551 (HIV-) | 4 µg/mL
CO[C@H]1/C=C/O[C@@]2(C)Oc3c(C)c(O)c4c(O)c(c5c(c4c3C2=O)NC2(CCN(CC(C)C)CC2)N=5)=NC(=O)/C(C)=C\C=C\[C@H](C)[C@H](O)[C@@H](C)[C@@H](O)[C@@H](C)[C@H](OC(C)=O)[C@@H]1C | - | - | CDC2 | 0.075 µg/mL
CCn1cc(C(=O)O)c(=O)c2ccc(-c3ccncc3)cc21 | - | - | - | 23.5 µg/mL

Repeating the final 2 entries:

structure,method,conditions,strain or isolate,value
CO[C@H]1/C=C/O[C@@]2(C)Oc3c(C)c(O)c4c(O)c(c5c(c4c3C2=O)NC2(CCN(CC(C)C)CC2)N=5)=NC(=O)/C(C)=C\C=C\[C@H](C)[C@H](O)[C@@H](C)[C@@H](O)[C@@H](C)[C@H](OC(C)=O)[C@@H]1C,-,-,CDC2,0.075 µg/mL
CCn1cc(C(=O)O)c(=O)c2ccc(-c3ccncc3)cc21,-,-,-,23.5 µg/mL